Laboratory results as given in US20090324743A1, “PULMONARY DRUG DELIVERY” (UNIVERSITY OF STRATHCLYDE, priority 2008, published 2009).

Test system: B16 F0 cells
Assay: In vivo lung cancer efficacy study, organ weights
Set-up: species or system BALB/c mice
Settings: sacrificed day 14
[1] = Table 5, 0.5 mg/ml inhalation 6.5 mins on day 7
[2] = Table 5, 4.44 mg/kg iv (0.2 ml of 0.5 mg/ml) on day 7
[3] = Table 6 Expt 1, inhalation on days 4, 7, 9 and 11, cisplatin solution 0.5 mg/ml, processed cisplatin-NIV as prepared
[4] = Table 6 Expt 2, inhalation day 7 only, 0.1 mg/ml

## [NH2][Pt]([NH2])([Cl])[Cl] [Cisplatin solution, cisplatin]
[1]
  Mean organ weight, Kidney: 0.19 ± 0.04 g
  Mean organ weight, Spleen: 0.24 ± 0.01 g
[2]
  Mean organ weight, Kidney: 0.13 ± 0.01 g
  Mean organ weight, Spleen: 0.22 ± 0.01 g
[3]
  Mean organ weight, Kidney: 0.15 ± 0.01 g
  Mean organ weight, Spleen: 0.13 ± 0.01 g
[4]
  Mean organ weight, Kidney: 0.21 ± 0.01 g
  Mean organ weight, Spleen: 0.13 ± 0.01 g
